In patent US20090241222A1, “TANDEM REAPEAT DNA CONSTRUCTS PRODUCING PROTEINS THAT ATTACK PLANT PATHOGENIC VIRUSES, FUNGI, AND BACTERIA BY DISRUPTING TRANSCRIPTION FACTORS ESSENTIAL FOR REPLICATION THEREOF IN PLANTS” (priority 2008, published 2009):

Tested on: pathogenic fungus present in the test tube water
Experiment: Portulaca resistance to pathogenic fungus induced by picolinic acid (FIG. 31)
Settings: plants continuously exposed to 6 mM PA, 10 days

`O=C(O)c1ccccn1` [picolinic acid, 2-pyridine carboxylic acid] was tested, and the root system was “profuse root system”.
